For at least one entry, the source does not settle the construct or the ends of the probe. Protein sequences can lack the tags named with them.
Molecular target: T1, Tn5 transposase (UniProt Q46731)
T1 sequence (looked up, limits assumed): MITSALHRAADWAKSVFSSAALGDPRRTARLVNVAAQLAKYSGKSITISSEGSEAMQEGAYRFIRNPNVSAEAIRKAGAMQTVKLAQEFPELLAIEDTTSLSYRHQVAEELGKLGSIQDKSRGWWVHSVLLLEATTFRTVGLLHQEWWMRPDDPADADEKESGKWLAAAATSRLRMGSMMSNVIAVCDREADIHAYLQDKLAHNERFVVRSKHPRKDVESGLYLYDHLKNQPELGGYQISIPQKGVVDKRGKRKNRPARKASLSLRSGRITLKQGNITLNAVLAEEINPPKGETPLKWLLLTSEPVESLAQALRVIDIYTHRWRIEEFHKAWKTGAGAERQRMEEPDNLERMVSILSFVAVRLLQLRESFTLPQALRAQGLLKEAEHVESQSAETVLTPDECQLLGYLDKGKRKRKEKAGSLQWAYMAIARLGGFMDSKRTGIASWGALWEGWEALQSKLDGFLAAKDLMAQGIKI
Experiment: binding assay
Details: Tn5 85 ug/mL bound at room temperature, activated in 10 mM TAPS pH 8.5, 5 mM MgCl2, 10% DMF, 37 C; purified recombinant protein; label: conjugated to secondary antibody

ATGCATTAATACGACTCACTATAGGGTAGATCGCTCGTCGGCAGCGTCAGATGTGTATAAGAGACAG / CTGTCTCTTATACACATCT
binding result: binds

— US20200010853, “METHOD FOR INSERTING DESIRED DNA FRAGMENT INTO SITE LOCATED ADJACENT TO BINDING DOMAIN OF DNA-BINDING PROTEIN” (KYUSHU UNIVERSITY, NATIONAL UNIVERSITY CORPORATION, published 2020)
